Results of unrelated studies side by side (data: NIAID ChemDB).

Shared fields: tests in culture; species: Mycobacterium tuberculosis

Percent inhibition refers to the dose given; in toxicity tests it is the harm to the cells.

smiles | strain or isolate | cell line | method | conditions | read-out | tested at | value
CC(=O)NC[C@H]1CN(c2ccc(N3CCN(c4ccc([N+](=O)[O-])s4)CC3)c(F)c2)C(=O)O1 | V-591 |  |  |  | MIC |  | 0.5 µg/mL
O=C(NN=Cc1ccc([N+](=O)[O-])cc1)c1ccccc1Sc1ccccc1 | H37Rv |  | resazurin |  | MIC90 |  | >50 µg/mL
COc1ccc2c(C)cc(N/N=C(/c3ccccc3)c3ccccn3)nc2c1 | H37Rv | VERO | BACTEC |  | MIC |  | 1.6 µg/mL
Cc1cc(C2=NNC(c3c(Cl)cccc3Cl)C2)ccc1O | H37Rv |  |  |  | MIC |  | >6.25 µg/mL
Cn1c(=O)cc(Oc2nc(Nc3ccc(C#N)cc3)nc(Nc3nc4ccccc4s3)n2)c2ccccc21 |  |  | agar |  | MIC |  | 200 µg/mL
O=C(Nc1ccc(S(=O)(=O)Nc2nccs2)cc1)c1cccnc1Nc1cccc(Cl)c1 | H37Rv |  | BACTEC |  | MIC |  | ≥12.5 µg/mL
COc1ccc(C2CC(c3ccc(O)c(C)c3)=NN2)cc1OC | H37Rv |  |  |  | MIC |  | >6.25 µg/mL
O=C1C2=C(OC(c3ccccc3)CC2)C(=O)c2ccccc21 | H37Rv |  |  |  | MIC |  | >100 µg/mL
CC1(C)CC[C@]2(C(=O)O)CC[C@]3(C)C(=CC[C@@H]4[C@@]5(C)CC[C@H](O)C(C)(C)[C@@H]5CC[C@]43C)[C@@H]2C1 | H37Rv |  | BACTEC |  | inhibition | 12.5 µg/mL | -10%
Cn1c(=O)cc(Oc2nc(Nc3ccc(C#N)cc3)nc(Sc3nnc(-c4ccncc4)o3)n2)c2ccccc21 |  |  | agar |  | inhibition | 62.5 µg/mL | 97%
CCCCc1ncc(C(N)=O)nc1SCCC | H37Rv |  |  |  | MIC |  | >12.5 µg/mL
O=C1C2=C(OC(c3ccc(Cl)cc3)CC2)C(=O)c2ccccc21 | H37Rv |  |  |  | MIC |  | >100 µg/mL
Cc1c(Cc2cccc(C(F)(F)F)c2)c(=O)n2c([nH]c3ccccc32)c1C#N | H37Rv |  | resazurin |  | MIC90 |  | >128 µg/mL
Cc1nc([N+](=O)[O-])c2n1CC(C)O2 | H37Rv |  |  |  | MIC |  | >10 µg/mL
COc1ccc2c(c1OC(C)=O)-c1cc(OC(C)=O)cc3c1C(C2)NCC3.Cl | H37Rv |  | BACTEC |  | MIC bound |  | >12.5 µg/mL
CC1COc2c(N3CCN(C)CC3)c(F)cc3c(=O)c(C(=O)O)cn1c23 | Canettii |  | resazurin |  | MIC |  | 0.5 µg/mL
O=c1[nH][nH]c(=O)c2c1nc(SC1CCCCC1)n2Cc1ccccc1 | H37Rv |  | BACTEC |  | MIC bound |  | >12.5 µg/mL
CCCCCC(N)=NC[C@H]1O[C@H](O[C@H]2O[C@H](CN=C(N)CCCCC)[C@@H](O)[C@H](O)[C@H]2O)[C@H](O)[C@@H](O)[C@@H]1O | H37Ra |  |  |  | MIC |  | >128 µg/mL
CC1=[N+](C)N(c2ccccc2)C(=O)C1Nc1nc(Nc2ccc(C#N)cc2)nc(Oc2cc(=O)n(C)c3ccccc23)n1 |  |  | agar |  | inhibition | 100 µg/mL | 62.5%
Cc1cc(C2=NNC(c3ccccc3Cl)C2)ccc1O | H37Rv |  |  |  | inhibition | 6.25 µg/mL | 83%
CO[C@H]1/C=C/O[C@@]2(C)Oc3c(C)c(O)c4c(=O)c(c5oc6cc(N7CCN(CC(C)C)CC7)cc(=O)c6nc5c4c3=C2O)NC(=O)/C(C)=C\C=C\[C@H](C)[C@H](O)[C@@H](C)[C@@H](O)[C@@H](C)[C@H](OC(C)=O)[C@@H]1C | Erdman |  |  |  | MIC |  | 0.008 µg/mL
COC(=O)NC[C@H]1CN(c2cc(F)c(N3CC4NC(=O)OC4C3)c(F)c2)C(=O)O1 | H37Rv |  | resazurin |  | MIC100 |  | 0.31 µM
CCCCCCNC[C@H]1O[C@H](O[C@H]2O[C@H](CNCCCCCC)[C@@H](O)[C@H](O)[C@H]2O)[C@H](O)[C@@H](O)[C@@H]1O | H37Ra |  |  |  | MIC |  | 128 µg/mL
CC(=O)NC[C@H]1CN(c2cc(F)c(N3C[C@@H]4OC(=O)N[C@@H]4C3)c(F)c2)C(=O)O1 | H37Rv |  | resazurin |  | MIC100 |  | 0.25 µM
CCCCc1ncc(C(N)=S)nc1SCCC | H37Rv |  |  |  | inhibition | 12.5 µg/mL | 83%
O=C(NNC(=S)Nc1ccccc1)c1ccncc1 | H37Rv |  | resazurin |  | inhibition | 6.25 µg/mL | 8%
Cc1ccc(C2CC(c3ccc([N+](=O)[O-])cc3)C3=C(O2)c2ccccc2C(=O)C3=O)cc1 | H37Rv |  |  |  | MIC |  | 2.5 µg/mL
COc1cc(-c2nnc(Sc3nc(Nc4ccc(C#N)cc4)nc(Oc4cc(=O)n(C)c5ccccc45)n3)o2)cc(OC)c1OC |  |  | agar |  | MIC |  | 12.5 µg/mL
C[C@H](O)[C@H]1C(=O)N2C(C(=O)O)=C(S[C@@H]3CN[C@H](C(=O)N(C)C)C3)[C@H](C)[C@H]12 | H37Ra |  |  |  | MIC |  | 8 µg/mL
CC(=O)NC[C@H]1CN(c2cc(F)c(N3CC4CCS(=O)(=O)CCC4C3)c(F)c2)C(=O)O1 | H37Rv |  | resazurin |  | MIC100 |  | 0.31 µM
CCCSc1nc(C(N)=O)cnc1C(C)(C)C | H37Rv |  |  |  | MIC |  | >12.5 µg/mL
CCn1c(SCC(=O)NN)nnc1-c1ccco1 | H37Rv |  |  |  | inhibition | 6.25 µg/mL | 0%
COc1cc2c(cc1Oc1ccc(OC)c3c1CC1c4c(cc(OC)c(OC)c4-3)CCN1C)CC1c3c(cc(OC)c(OC)c3-2)CCN1C | PZA-R |  |  |  | MIC |  | 12.5 µg/mL
CC1(C)S[C@@H]2[C@H](NC(=O)[C@H](N)c3ccc(O)cc3)C(=O)N2[C@H]1C(=O)O | H37Ra |  |  |  | MIC |  | 256 µg/mL
COc1cccc2c1C(=O)c1c(O)c3c(c(O)c1C2=O)CC(O)(C(C)=O)CC3OC1CC(NCC2(O)OC(C(=O)NCCCN(C)C)C(O)C2O)C(O)C(C)O1 | EMB-R |  |  |  | MIC |  | 12.5 µg/mL
NC(N)=NC[C@H]1O[C@H](O[C@H]2O[C@H](CN=C(N)N)[C@@H](O)[C@H](O)[C@H]2O)[C@H](O)[C@@H](O)[C@@H]1O | H37Ra |  |  |  | MIC |  | >128 µg/mL
CCCc1ncc(C(N)=O)nc1SCC | H37Rv |  |  |  | MIC |  | >12.5 µg/mL
Cc1cc(C(=O)/C=C/c2ccccc2Cl)ccc1O | H37Rv |  |  |  | inhibition | 6.25 µg/mL | 88%
COc1cccc([C@H](c2cc3cc(C#N)ccc3nc2OC)[C@@](O)(CCN(C)C)c2ccc(C)nc2)c1OC | H37Rv |  | luminescence |  | MIC90 |  | >5 µg/mL
CCSc1nc(C(N)=O)cnc1C(C)(C)C | H37Rv |  |  |  | MIC |  | >12.5 µg/mL
C=C1C(=O)OC2CC1C(O)C/C(C)=C\CC/C(C)=C\C(O)CC2C | H37Rv |  | BACTEC |  | inhibition | 12.5 µg/mL | 33%
COc1ccc([C@](O)(CCN(C)C)[C@@H](c2cc3cc(C#N)ccc3nc2OC)c2cccc(OC)c2OC)cn1 | H37Rv |  | fluorescence |  | MIC90 |  | 2.1 µg/mL
O=c1cc(-c2ccc(O)cc2)oc2cc(O[C@@H]3O[C@H](CO)[C@@H](O)[C@H](O)[C@H]3O)cc(O)c12 | H37Rv |  | BACTEC |  | MIC bound |  | >12.5 µg/mL
Cn1c(=O)cc(Oc2nc(Nc3ccc(C#N)cc3)nc(Nc3ccccn3)n2)c2ccccc21 |  |  | agar |  | MIC |  | 500 µg/mL
CN(C)CNC(=S)S | KM-R |  |  |  | MIC |  | 6.3 µg/mL
CCCCC(CC)CN(CC(CC)CCCC)C[C@H]1O[C@H](O[C@H]2O[C@H](CN(CC(CC)CCCC)CC(CC)CCCC)[C@@H](O)[C@H](O)[C@H]2O)[C@H](O)[C@@H](O)[C@@H]1O | H37Ra |  |  |  | MIC |  | 128 µg/mL
CCSc1nc(C(N)=S)cnc1CC(C)C | H37Rv |  |  |  | MIC |  | >12.5 µg/mL
CC1(C)CC(N=c2cc3n(-c4ccc(Cl)c(Cl)c4)c4ccccc4nc-3cc2Nc2ccc(Cl)c(Cl)c2)CC(C)(C)N1 | H37Rv | Macrophages |  | inside macrophages | MIC |  | 0.03 µg/mL
CC1COc2c(N3CCN(C)CC3)c(F)cc3c(=O)c(C(=O)O)cn1c23 | 79 strains (drug-susceptible) |  |  |  | MIC50 |  | 0.27 µg/mL
CC(=O)NC1CCC(/C=N\NC(=O)C2CCNCC2)CC1 | BCG |  |  |  | MIC |  | 0.08 µg/mL
Cc1cc(C(=O)/C=C/c2ccco2)ccc1O | H37Rv |  |  |  | inhibition | 6.25 µg/mL | 73%
NNC(=O)C(c1ccccc1)c1ccccc1 | BCG |  |  |  | MIC |  | 100 µg/mL
Cc1cccc(C)c1NC(=O)CCC(=O)NNc1nnc(C)n1N | H37Rv |  | BACTEC |  | MIC |  | ≥12.5 µg/mL
CC1COc2c(N3CCN(C)CC3)c(F)cc3c(=O)c(C(=O)O)cn1c23 | 25 strains |  |  |  | MIC90 |  | 0.78 µg/mL
CC(C)/C=N/NC(=O)C1CCNCC1 | BCG |  |  |  | MIC |  | 0.1 µg/mL
O=c1ccc2ncccc2n1CCN1CCC(NCc2cc(Cl)c(Cl)cn2)CC1 | CDC1551 |  | resazurin |  | MIC |  | 0.15 µg/mL
COc1ccc(Cc2c(C)c(C#N)c3[nH]c4ccccc4n3c2=O)cc1 | TF274 |  | resazurin |  | MIC90 |  | 0.5 µg/mL
CCc1[nH]c2ccccc2c1C(=O)c1ccncc1 | H37Rv |  | BACTEC |  | inhibition | 6.25 µg/mL | 0%
O=C(NN=Cc1ccccc1)c1ccccc1Sc1ccccc1 | H37Rv |  | resazurin |  | MIC90 |  | >50 µg/mL
CCOC(=O)C(=O)NNc1ccc([N+](=O)[O-])cc1 | BCG |  |  |  | MIC |  | 0.03 µg/mL
CCCCCCCCCCCCCCCCCCN(C)C[C@H]1O[C@H](O[C@H]2O[C@H](CN(C)CCCCCCCCCCCCCCCCCC)[C@@H](O)[C@H](O)[C@H]2O)[C@H](O)[C@@H](O)[C@@H]1O | H37Ra |  |  |  | MIC |  | >128 µg/mL
COC(=O)C(=O)C1CSC2=C(CS(=O)(=O)c3ccccc32)C1=O | H37Rv |  | BACTEC |  | MIC bound |  | >12.5 µg/mL
NC(=O)C1CCNCC1 | BCG |  |  |  | MIC |  | 1000 µg/mL
COc1ccc(Cc2nnc3nc(OC)c(-c4ccc(OC)cc4)n3n2)cc1 | H37Rv |  | BACTEC |  | MIC bound |  | >12.5 µg/mL
CC[C@@H](CO)NCCN[C@@H](CC)CO | H37Rv |  |  |  | MIC |  | 12.3 µg/mL
Cc1[nH]n(-c2ccccc2)c(=O)c1N=Nc1cccc(C(F)(F)F)c1 | H37Rv |  | BACTEC |  | MIC bound |  | >12.8 µg/mL
O=C(NN=Cc1ccncc1)c1ccccc1Sc1ccccc1 | H37Rv |  | resazurin |  | MIC90 |  | >50 µg/mL
Cc1ccc(S(=O)(=O)/C=C/c2ccc([N+](=O)[O-])o2)cc1 | H37Rv |  | resazurin |  | inhibition | 6.25 µg/mL | 99%
O=[N+]([O-])c1ncn2c1OC(CCl)C2 | H37Rv |  |  |  | MIC |  | >10 µg/mL
CN(C)C=NCc1ccc2c(c1)OCO2 | H37Rv |  | BACTEC |  | inhibition | 12.5 µg/mL | 25%
CCCSc1nc(C(N)=O)cnc1CCC | H37Rv |  |  |  | MIC |  | >12.5 µg/mL
C[C@H]1[C@H](C)Oc2c3c(c4c(c2[C@H]1O)OC(=O)CC4c1ccccc1)OC(C)(C)C=C3 | H37Rv |  | BACTEC |  | MIC |  | <12.5 µg/mL
CC1NCC(C(=O)NN)C(O)N1 | BCG |  |  |  | MIC |  | 400 µg/mL
CCC[CH2][Sn]([Cl])([CH2]CCC)[S]C(=S)NCCNC(=S)[S][Sn]([Cl])([CH2]CCC)[CH2]CCC | H37Rv |  | resazurin |  | MIC |  | 0.78 µg/mL
Cn1c(=O)cc(Oc2nc(Nc3ccc(C#N)cc3)nc(Nc3cnccn3)n2)c2ccccc21 |  |  | agar |  | MIC |  | 250 µg/mL
O=C1C2=C(OC(c3ccc(Br)cc3)CC2)C(=O)c2ccccc21 | H37Rv |  |  |  | MIC |  | >100 µg/mL
Cc1cc(C2=NNC(c3ccco3)C2)ccc1O | H37Rv |  |  |  | inhibition | 6.25 µg/mL | 90%
CO[C@H]1/C=C/O[C@@]2(C)Oc3c(C)c(O)c4c(c3C2=O)C2=NC(C)(C)N(c3ccccc3)C2=C(NC(=O)/C(C)=C\C=C\[C@H](C)[C@H](O)[C@@H](C)[C@@H](O)[C@@H](C)[C@H](OC(C)=O)[C@@H]1C)C4=O | H37Rv |  | resazurin |  | MIC |  | ≤0.1 µg/mL
CCCCSc1nc(C(N)=S)cnc1CCCC | H37Rv |  |  |  | inhibition | 12.5 µg/mL | 87%
Cc1cc(C(=O)/C=C/c2ccc(Cl)cc2)ccc1O | H37Rv |  |  |  | MIC |  | >6.25 µg/mL
Cn1c(=O)cc(Oc2nc(Nc3ccc(C#N)cc3)nc(Nc3nc4ccc(Br)cc4s3)n2)c2ccccc21 |  |  | agar |  | inhibition | 50 µg/mL | 97%
CCCCSc1nc(C(N)=S)cnc1C(C)(C)C | H37Rv |  |  |  | inhibition | 12.5 µg/mL | <90%
CC1(C)CC(N=c2cc3n(-c4cc(Cl)cc(Cl)c4)c4ccccc4nc-3cc2Nc2cc(Cl)cc(Cl)c2)CC(C)(C)N1 | TBRP274 (INH SM-resistant) |  |  |  | MIC |  | 0.03 µg/mL
Cc1ccc2nc(Nc3nc(Nc4ccc(C#N)cc4)nc(Oc4cc(=O)n(C)c5ccccc45)n3)sc2c1 |  |  | agar |  | MIC |  | 250 µg/mL

MIC50, MIC90 and the like: level of inhibition, or share of isolates inhibited. MIC bound: limit read from a one-dose screen. Blank or dashed fields: not listed here. Lines come from different laboratories, so protocols vary.